Consider 1 molecule from US9808527B2, “Methods and compositions for treating HIV infections” (priority 2006, dated 2017).

The subject of experiment [1] is HIV-1LAI. Kind of experiment: MTT assay, MT-2 cells exposed to HIV-1LAI (acute HIV-1 infection assay). In kind it is cell-based. The following applies: read-out: IC50 against HIV-1LAI, 100 TCID50 of HIV-1LAI, MTT assay on day 7. A general note: Formazan colour is commonly taken as a measure of viable cells.
For experiment [2], the target named is HIV-1 protease (Human immunodeficiency virus type 1 group M subtype B, UniProt P04585, C555A/C583A/L521I/L551I/Q495K/V491I). As to conditions: read-out: Ki against HIV-1 protease; wild-type PR, pH 5.0.

A word on the IC50: it is the concentration that gives 50% inhibition. As usually defined, the Ki is the dissociation constant of the complex between target and ligand, obtained from inhibition or displacement. As to `CC(C)CN(C[C@@H](O)[C@H](CSc1ccccc1)NC(=O)O[C@@H]1C[C@@H]2CCO[C@@H]2C1)S(=O)(=O)c1ccc(CO)cc1`, the IC50 in experiment [1] was 5 nM. For the same molecule, the Ki in experiment [2] was determined as 0.029 nM.
